Anti-infective test results gathered from many reports (values: NIAID ChemDB through PubChem).

All rows: growth or infection tests; species: Aspergillus niger

ECn: concentration that inhibits the pathogen or its effect by n%. Conditions beyond the fields shown may differ between rows. MIC50, MIC90 and the like: level of inhibition, or share of isolates inhibited. Percent inhibition refers to the dose given; in toxicity tests it is the harm to the cells. Zone: diameter of growth inhibition.

{"structure": "O=c1ccc2c(ccc3nc(N4CCN(Cc5ccccc5)CC4)sc32)o1", "strain or isolate": "MTCC 282", "endpoint": "MIC100", "result": "500 µg/mL"}
{"structure": "COc1cc(/C=C2/SC(=O)NC2=O)ccc1O", "strain or isolate": "MTCC 282", "read by": "broth dilution / visual reading", "endpoint": "MIC", "result": "100 µg/mL"}
{"structure": "O=C(NN=Cc1cccs1)c1snnc1C(F)(F)F", "strain or isolate": "MTCC 1344", "read by": "agar diffusion / agar", "endpoint": "zone", "tested at": "150 µg/mL", "result": "0 mm"}
{"structure": "CS(=O)(=O)c1nc(N)c(C#N)c(-c2ccccc2O)n1", "strain or isolate": "MTCC 282", "read by": "agar diffusion", "endpoint": "zone", "tested at": "100 µg/mL", "result": "20 mm"}
{"structure": "CSc1ccc(C2CC(c3cccc(N)c3)=NN2c2ccccc2)cc1", "strain or isolate": "NCIM 596", "read by": "broth dilution", "endpoint": "inhibition", "tested at": "2000 µg/mL", "result": "84.37%"}
{"structure": "CC(=NNC(=O)c1snnc1C(F)(F)F)c1ccc([N+](=O)[O-])cc1", "strain or isolate": "MTCC 1344", "read by": "agar diffusion / agar", "endpoint": "zone", "tested at": "100 µg/mL", "result": "0 mm"}
{"structure": "Cc1ccccc1-[n+]1noc([O-])c1C(=O)CSc1nc2ccccc2[nH]1", "read by": "agar diffusion", "endpoint": "EC50", "result": ">20 µg/mL"}
{"structure": "O=Cc1ccc(OCC(O)(Cn2cncn2)c2ccc(F)cc2F)cc1", "strain or isolate": "ATCC 16404", "read by": "broth dilution", "endpoint": "MIC50", "result": "128 µg/mL"}
{"structure": "O=C(CSc1nc2ccccc2[nH]1)c1c([O-])on[n+]1-c1ccccc1", "read by": "agar diffusion", "endpoint": "EC50", "result": ">20 µg/mL"}
{"structure": "CCN1CCN(c2nc3ccc4c(ccc(=O)n4C)c3s2)CC1", "strain or isolate": "MTCC 282", "endpoint": "MIC100", "result": "250 µg/mL"}
{"structure": "COc1ccc(C2=C(c3ccc(OCC(O)(Cn4cncn4)c4ccc(F)cc4F)cc3)C(=O)OC2)cc1", "strain or isolate": "ATCC 16404", "read by": "broth dilution", "endpoint": "MIC50", "result": "8 µg/mL"}
{"structure": "O=C(NN=Cc1ccc(O)cc1)c1snnc1C(F)(F)F", "strain or isolate": "MTCC 1344", "read by": "agar diffusion / agar", "endpoint": "zone", "tested at": "150 µg/mL", "result": "0 mm"}
{"structure": "Cc1cc(C=Nc2ccc(N=Cc3cc(C)cc(/C=N/Nc4nc5ccccc5s4)c3O)cc2)c(O)c(/C=C/Nc2nc3ccccc3s2)c1", "read by": "turbidity", "endpoint": "inhibition", "tested at": "5 µg/mL", "result": "0%"}
{"structure": "Cc1ccc2nc(Cl)c(C3SC(=Cc4ccccc4Cl)C(=O)N3n3c(-c4ccc(Cl)cc4)nc4ccccc4c3=O)cc2c1", "read by": "broth dilution / visual reading", "endpoint": "MIC99", "result": "500 µg/mL"}
{"structure": "COc1cc(C=O)cc(OC)c1OCC(O)(Cn1cncn1)c1ccc(F)cc1F", "strain or isolate": "ATCC 16404", "read by": "broth dilution", "endpoint": "MIC50", "result": "128 µg/mL"}
{"structure": "Cc1ccc(/C=C2/SC(=O)NC2=O)cc1", "strain or isolate": "MTCC 282", "read by": "broth dilution / visual reading", "endpoint": "MIC", "result": "500 µg/mL"}
{"structure": "CSc1ccc(C2CC(c3ccccc3)=NN2c2ccccc2)cc1", "strain or isolate": "NCIM 596", "read by": "broth dilution", "endpoint": "inhibition", "tested at": "2000 µg/mL", "result": "93.52%"}
{"structure": "Cc1ccc(C)c(-[n+]2noc([O-])c2C(=O)CSc2nc3ccccc3[nH]2)c1", "read by": "agar diffusion", "endpoint": "EC50", "result": ">20 µg/mL"}
{"structure": "O=C1CSC(=O)N1", "strain or isolate": "MTCC 282", "read by": "broth dilution / visual reading", "endpoint": "MIC", "result": "500 µg/mL"}
{"structure": "COc1ccccc1-[n+]1noc([O-])c1C(=O)CSc1nc2ccccc2[nH]1", "read by": "agar diffusion", "endpoint": "EC50", "result": ">20 µg/mL"}
{"structure": "CS(=O)(=O)c1nc(N)c(C#N)c(/C=C\\c2ccccc2)n1", "strain or isolate": "MTCC 282", "read by": "agar diffusion", "endpoint": "zone", "tested at": "25 µg/mL", "result": "18 mm"}
{"structure": "O=C(NN=Cc1ccc([N+](=O)[O-])cc1)c1snnc1C(F)(F)F", "strain or isolate": "MTCC 1344", "read by": "agar diffusion / agar", "endpoint": "zone", "tested at": "150 µg/mL", "result": "0 mm"}
{"structure": "O=C1NC(=O)/C(=C\\c2ccccc2Cl)S1", "strain or isolate": "MTCC 282", "read by": "broth dilution / visual reading", "endpoint": "MIC", "result": "250 µg/mL"}
{"structure": "CCOc1ccc(C2=NN(c3ccccc3)C(c3ccc(SC)cc3)C2)cc1", "strain or isolate": "NCIM 596", "read by": "broth dilution", "endpoint": "inhibition", "tested at": "2000 µg/mL", "result": "85.29%"}
{"structure": "C[C@@H](c1ncncc1F)[C@](O)(Cn1cncn1)c1ccc(F)cc1F", "read by": "broth dilution", "endpoint": "MIC50", "result": "1 µg/mL"}
{"structure": "Cc1ccc(-[n+]2noc([O-])c2C(=O)CSc2nc3ccccc3[nH]2)cc1C", "read by": "agar diffusion", "endpoint": "EC50", "result": ">20 µg/mL"}
{"structure": "CSC1=NC(c2ccccc2)C(C#N)=C(N)N1", "strain or isolate": "MTCC 282", "read by": "agar diffusion", "endpoint": "zone", "tested at": "25 µg/mL", "result": "15 mm"}
{"structure": "C[C@@H]1C/C=C/C=C/C=C/C=C/[C@H](OC2O[C@H](C)[C@@H](O)[C@H](N)[C@@H]2O)CC2O[C@](O)(C[C@@H](O)C[C@H]3O[C@@H]3/C=C/C(=O)O1)C[C@H](O)[C@H]2C(=O)O", "strain or isolate": "Species complex", "endpoint": "MIC90", "result": "8 µg/mL"}
{"structure": "COc1ccc(C=NNC(=O)c2snnc2C(F)(F)F)cc1", "strain or isolate": "MTCC 1344", "read by": "agar diffusion / agar", "endpoint": "zone", "tested at": "100 µg/mL", "result": "0 mm"}
{"structure": "O=C1O/C(=C\\c2ccc(OCC(O)(Cn3cncn3)c3ccc(F)cc3F)cc2)C(c2ccc(F)cc2F)=C1c1ccc(Cl)cc1", "strain or isolate": "ATCC 16404", "read by": "broth dilution", "endpoint": "MIC50", "result": "4 µg/mL"}
{"structure": "O=c1ccc2c(ccc3nc(N4CCN(c5ccc(F)cc5)CC4)sc32)o1", "strain or isolate": "MTCC 282", "endpoint": "MIC100", "result": "62.5 µg/mL"}
{"structure": "COc1ccc(C2=NN(c3ccccc3)C(c3ccc(SC)cc3)C2)cc1OC", "strain or isolate": "NCIM 596", "read by": "broth dilution", "endpoint": "inhibition", "tested at": "2000 µg/mL", "result": "9.65%"}
{"structure": "CSC1=NC(c2ccc(O)cc2)C(C#N)=C(N)N1", "strain or isolate": "MTCC 282", "read by": "agar diffusion", "endpoint": "zone", "tested at": "100 µg/mL", "result": "16 mm"}
{"structure": "CCCCCCN(CCCCCC)c1ccc(/C=C2/SC(=O)N(CC(=O)Nc3nc4ccc(SC#N)cc4s3)C2=O)cc1", "strain or isolate": "MTCC 282", "read by": "broth dilution / visual reading", "endpoint": "MIC", "result": "500 µg/mL"}
{"structure": "CC(=NNC(=O)c1snnc1C(F)(F)F)c1ccccn1", "strain or isolate": "MTCC 1344", "read by": "agar diffusion / agar", "endpoint": "zone", "tested at": "150 µg/mL", "result": "0 mm"}
{"structure": "Cc1ccc2nc(Cl)c(C3SC(=Cc4cccc(O)c4)C(=O)N3n3c(-c4ccc(Cl)cc4)nc4ccccc4c3=O)cc2c1", "read by": "broth dilution / visual reading", "endpoint": "MIC99", "result": "500 µg/mL"}
{"structure": "Cn1c(=O)ccc2c3sc(N4CCN(C(c5ccccc5)c5ccccc5)CC4)nc3ccc21", "strain or isolate": "MTCC 282", "endpoint": "MIC100", "result": "200 µg/mL"}
{"structure": "CSc1ccc(C2CC(c3cccc([N+](=O)[O-])c3)=NN2c2ccccc2)cc1", "strain or isolate": "NCIM 596", "read by": "broth dilution", "endpoint": "inhibition", "tested at": "2000 µg/mL", "result": "65.16%"}
{"structure": "Cc1ccc2nc(Cl)c(C3SC(=Cc4cccc([N+](=O)[O-])c4)C(=O)N3n3c(-c4ccc(Cl)cc4)nc4ccccc4c3=O)cc2c1", "read by": "broth dilution / visual reading", "endpoint": "MIC99", "result": "200 µg/mL"}
{"structure": "CSC1=NC(/C=C/c2ccccc2)C(C#N)=C(N)N1", "strain or isolate": "MTCC 282", "read by": "agar diffusion", "endpoint": "zone", "tested at": "25 µg/mL", "result": "13 mm"}
{"structure": "COc1cc(Cl)ccc1-[n+]1noc([O-])c1C(=O)CSc1nc2ccccc2[nH]1", "read by": "agar diffusion", "endpoint": "EC50", "result": ">20 µg/mL"}
{"structure": "CN(C)c1ccc(/C=C2/SC(=O)N(CC(=O)Nc3nc4ccc(SC#N)cc4s3)C2=O)cc1", "strain or isolate": "MTCC 282", "read by": "broth dilution / visual reading", "endpoint": "MIC", "result": "500 µg/mL"}
{"structure": "Cc1ccc2nc(Cl)c(C3SC(=Cc4ccc(O)cc4)C(=O)N3n3c(-c4ccc(Cl)cc4)nc4ccccc4c3=O)cc2c1", "read by": "broth dilution / visual reading", "endpoint": "MIC99", "result": "100 µg/mL"}
{"structure": "CSc1ccc(C2CC(c3cccc4c3OCO4)=NN2c2ccccc2)cc1", "strain or isolate": "NCIM 596", "read by": "broth dilution", "endpoint": "inhibition", "tested at": "2000 µg/mL", "result": "71.37%"}
{"structure": "Nc1ncccc1-c1cc(Cc2ccc(COc3ccccn3)cc2)no1", "read by": "broth dilution", "endpoint": "MIC50", "result": "0.016 µg/mL"}